This passage reports IC50 results from publication PMC6099356 (The New Phytologist, 2018).

The assay concerns the target GST-SlCaM6 (tomato (Solanum lycopersicum)). In words: other fluorescence titration. The conditions noted are these: both partners purified.

The molecule STWKIFKIISRLKKLKLKR [peptide 1 (last 19 aa at the C-terminus of SFI5)] yielded a concentration for half-maximal inhibition (IC50) of 1000 nM.

By IC50 is commonly meant the point on the concentration scale where inhibition reaches its midpoint. High values mean lower potency, low ones higher potency.
